Pooled drug test results. Numbers come from NIAID ChemDB, via PubChem.

Common to all: growth or infection tests; organism: Vaccinia virus; endpoint: EC50

Lines come from different laboratories, so protocols vary. ECn: concentration that inhibits the pathogen or its effect by n%. Two numbers with a dash give a range or band. An empty or dashed field is not shown.

smiles,strain or isolate,cell line,result
CCCCCCCCCCCCCCCCOCCCOP1(=O)CO[C@@H](Cn2ccc(N)nc2=O)CO1,NYC,HFF,0.1 µM
O=c1ccn(CC(CO)OCP(=O)(O)O)c(=O)[nH]1,-,Primary rabbit kidney cells,>400 µg/mL
Nc1ncnc2c1c(Br)cn2[C@@H]1O[C@H](CO)[C@@H](O)[C@H]1O,-,PRK,0.07 µg/mL
NC(=O)c1c[se]c([C@@H]2O[C@H](CO)[C@@H](O)[C@H]2O)n1,Elstree,HeLa,2 µg/mL
CCCCOC(=O)C(C)NP(=O)(COCCn1cnc2c(N)ncnc21)NC(C)C(=O)OCCCC,Copenhagen,HFF,4.4 µM
Nc1ncnc2c1ncn2C[C@H](O)CO,-,PRK,10–20 µg/mL
Cc1c(O)cccc1C(=O)N[C@@H](CSc1ccccc1)[C@H](O)CN1C[C@H]2CCCC[C@H]2C[C@H]1C(=O)NC(C)(C)C,-,HFF,>300 µM
Nc1ncnc2c1ncn2C[C@H](O)CO,-,VERO,20 µg/mL
Nc1ncnc2c1ncn2[C@@H]1CC[C@@H](O)[C@H]1O,-,L929,0.03 µg/mL
CN(C)c1nc(N)nc2c1ncn2CCOCP(=O)(O)O,WR,HFF,22 µM
Nc1ccn(C[C@@H](CO)OCP(=O)(O)O)c(=O)n1,Elstree,HFF,41.6 µM
Nc1ccn(C[C@H]2COP(=O)(O)CO2)c(=O)n1,-,HFF,0.6 µM
Cc1cn([C@H]2C=C[C@@H](CO)O2)c(=O)[nH]c1=O,-,VERO,>446 µM
Nc1ncc2ncn(CCOCP(=O)(O)O)c2n1,-,Primary rabbit kidney cells,>200 µg/mL
CC(C)OC(=O)C(C)NP(=O)(COCCn1cnc2c(NC3CC3)nc(N)nc21)Oc1ccccc1,Copenhagen,HFF,1.1 µM
Nc1ncnc2c1ncn2CCOCP(=O)(O)O,-,Primary rabbit kidney cells,150 µg/mL
O=c1[nH]c(=O)n([C@H]2C[C@H](O)[C@@H](CO)O2)cc1[N+](=O)[O-],-,PRK,0.2 µg/mL
NC(=O)c1ncn([C@@H]2O[C@H](CO)[C@@H](O)[C@H]2O)n1,-,VERO,13.5 µg/mL
Nc1nc2c(ncn2COC(CO)CO)c(=O)[nH]1,-,HFF,>392 µM
Cc1cn([C@H]2C=C[C@@H](CO)O2)c(=O)[nH]c1=O,-,HFF,>300 µM
Nc1ccn(C[C@H]2COP(=O)(O)CO2)c(=O)n1,NYC,HFF,10.3 µM
Nc1nc(N)c2ncn(CCOCP(=O)(O)O)c2n1,-,Primary rabbit kidney cells,20 µg/mL
Nc1nc(NC2CC2)c2ncn(CCOCP(=O)(O)O)c2n1,WR,HFF,18 µM
CC(C)(C)NC(=O)[C@@H]1C[C@@H]2CCCC[C@@H]2CN1C[C@@H](O)[C@H](Cc1ccccc1)NC(=O)[C@H](CC(N)=O)NC(=O)c1ccc2ccccc2n1,-,HFF,>300 µM
Nc1ncnc2c1ncn2C[C@@H](CO)OCP(=O)(O)O,NYC,HFF,5.9 µM
Nc1ncnc2c1ncn2[C@@H]1C=C(CO)[C@@H](O)[C@H]1O,-,PRK,0.03 µg/mL
CCCCCCCCCCCCCCCCCCOCCOP(=O)(O)CO[C@H](CO)Cn1ccc(N)nc1=O,Elstree,HFF,0.4 µM
C[C@H](NP1(=O)CO[C@@H](Cn2ccc(N)nc2=O)CO1)C(=O)OCCc1ccccc1,WR,HFF,15 µM
Cn1cc(NC(=O)c2cc(NC(=O)CCCCC(=O)Nc3cc(C(=O)Nc4cc(C(=O)NCCC(N)=[NH2+])n(C)c4)n(C)c3)cn2C)cc1C(=O)NCCC(N)=[NH2+],-,E6SM,0.2 µg/mL
Nc1cn([C@H]2C[C@H](O)[C@@H](CO)O2)c(=O)[nH]c1=O,-,PRK,1 µg/mL
Nc1ccn(C[C@H]2COP(=O)(O)CO2)c(=O)n1,NYC,HFF,16 µM

Repeating the first 2 entries:

smiles | strain or isolate | cell line | result
CCCCCCCCCCCCCCCCOCCCOP1(=O)CO[C@@H](Cn2ccc(N)nc2=O)CO1 | NYC | HFF | 0.1 µM
O=c1ccn(CC(CO)OCP(=O)(O)O)c(=O)[nH]1 | - | Primary rabbit kidney cells | >400 µg/mL